{
  "source": "ChEMBL document CHEMBL4819148",
  "about": "“Anti-protozoal and anti-fungal evaluation of 3,5-disubstituted 1,2-dioxolanes” (Bioorg Med Chem Lett, 2021)",
  "key": {"Candida albicans": {"test_system": "Candida albicans", "experiment": "Antifungal activity against Candida albicans CAAL93 assessed as reduction in fungal growth"}, "Aspergillus fumigatus": {"test_system": "Aspergillus fumigatus", "experiment": "Antifungal activity against Aspergillus fumigatus ASFU76 assessed as reduction in fungal growth after"}, "Plasmodium falciparum": {"test_system": "Plasmodium falciparum", "experiment": "Antimalarial activity against Plasmodium falciparum 3D7 assessed as inhibition of parasite growth"}, "Leishmania donovani [1]": {"test_system": "Leishmania donovani", "experiment": "Antileishmanial activity against axenic amastigote form of Leishmania donovani LV9 assessed as reduction in parasite growth"}, "Leishmania donovani [2]": {"test_system": "Leishmania donovani", "experiment": "Antileishmanial activity against intramacrophage form of Leishmania donovani LV9 assessed as reduction in parasite growth"}, "[3]": {"experiment": "Selectivity index, ratio of CC50 for cytotoxicity against HUVEC cells to IC50 for antiplasmodial activity against Plasmodium falciparum 3D7", "settings": "human"}, "[4]": {"experiment": "Selectivity index, ratio of CC50 for cytotoxicity against HUVEC cells to IC50 for antileishmanial activity against axenic amastigote form of Leishmania donovani LV9", "settings": "human"}},
  "data": [
    {"smiles": "CCCCCCC1CC(N=[N+]=[N-])OO1", "note": "(configuration not stated)", "values": [
      {"measurement": "IC50", "setting": "Candida albicans", "value": "> 100", "unit": "µM"},
      {"measurement": "IC50", "setting": "Aspergillus fumigatus", "value": "> 100", "unit": "µM"},
      {"measurement": "IC50", "setting": "Plasmodium falciparum", "value": 0.03, "unit": "µM"},
      {"measurement": "IC50", "setting": "Leishmania donovani [1]", "value": 19.2, "unit": "µM"},
      {"measurement": "IC50", "setting": "Leishmania donovani [2]", "value": 37.6, "unit": "µM"},
      {"measurement": "Ratio CC50/IC50", "setting": "[3]", "value": 405},
      {"measurement": "Ratio CC50/IC50", "setting": "[4]", "value": 0.64}
    ]}
  ]
}
